Compound potency records, mixed from different reports. Data source: NIAID ChemDB in PubChem.

Common to all: host cell toxicity; endpoint: CC50

An empty or dashed field is not shown.

compound,cells,read by,result
Nc1c(Cl)ncnc1NC1C[C@H]2C[C@@H]1c1ccsc12,Huh,,101 µM
CC(C)(CCOc1ccc(-c2ccc(Cl)cc2)cc1)CCN1CCN(c2ccncc2)C1=O,RD,,>25 µM
O=c1ccn(-c2ccc(F)cc2)c2cc(-n3ccnc3)c(F)cc12,HPB-ALL,luminescence,205.4 µM
CCOC(=O)CCCCCOc1cccc(CN(C(=O)c2ccc(-c3cccc(C(F)(F)F)c3)cc2)C(C)C)c1,BJ,,<7.5 µM
CN(C)C(=S)N=Nc1c(O)[nH]c2ccccc12,hRD,,>25 µM
Nc1cc2c(=O)c(C(=O)O)cn(C3CC3)c2cc1N1CCN(c2nc3ccccc3s2)CC1,C3H/3T3,,0.12 µg/mL
CCOC(=O)CCCCCOc1cccc(CN(C(=O)c2ccc(-c3ccc4c(c3)OCCO4)cc2)C(C)C)c1,BJ,,>20 µM
Oc1[nH]c2ccc(F)cc2c1N=NC(=S)Nc1ccccc1,hRD,,>25 µM
CCCCN1CC[C@@H](N2CC(=O)N3[C@H](c4ccc5c(c4)OCO5)c4[nH]c5ccccc5c4C[C@@H]3C2=O)C1,MRC-5 SV2,resazurin,8 µM
COc1ccc(OCc2ccc(COc3c(Cl)cccc3Cl)cc2)c(Cl)c1,BGMK,,>50 µg/mL
Clc1ncnc2c1ncn2C1C[C@H]2C[C@@H]1c1ccsc12,Huh,,28 µM
C[C@@]1(O)[C@H](O)[C@@H](CO)O[C@H]1n1cnc2c(N)ncnc21,HBIII27,,33 µM
O=C1N(CCC(CCOc2ccc(-c3ccc(Cl)cc3)cc2)C(F)(F)F)CCN1c1ccncc1,RD,,>12.5 µM
CCOC(OCC)C1=NCCc2cc(OC)c(OC)cc21,BJ,,<7.5 µM
O=c1ccn(-c2ccc(F)cc2)c2cc(-n3cncn3)ccc12,HPB-ALL,luminescence,120.3 µM
O=c1c(-c2ccccc2O)c(O)c2cccnc2n1O,HeLa,,<100 µM
O=C1[C@H]2Cc3c([nH]c4ccccc34)[C@@H](c3ccc4c(c3)OCO4)N2C(=O)CN1[C@@H]1CCN(CCOc2ccccc2)C1,MRC-5 SV2,resazurin,7.7 µM
C=Cn1ccc(=O)c2ccc(-c3ccncc3)cc21,HPB-ALL,luminescence,97.6 µM
COC(=O)N[C@@H]1[C@H](C)O[C@@H](OC2C/C=C(\C)[C@H]3C=C[C@H]4[C@H](OC5C[C@@H](OC6C[C@@H](O)[C@@H](OC7C[C@@H](O)[C@@H](OC)[C@H](C)O7)[C@H](C)O6)[C@@H](O)[C@H](C)O5)[C@H](C)C[C@@H](C)[C@@H]4[C@@]3(C)/C(O)=C3/C(=O)OC4(C[C@H](C)C(CO)=C[C@H]4/C=C\2C)C3=O)C[C@@]1(C)N,CEM-TART lymphoblastoid cells,MTT,1.6 µM
Nc1nc2c(ncn2[C@@H]2O[C@H](CO)[C@H]2CO)c(=O)[nH]1,COS 1,,66 µg/mL
CC(C)c1nc(CN(C)C(=O)N[C@H](C(=O)N[C@@H](Cc2ccccc2)C[C@H](O)[C@H](Cc2ccccc2)NC(=O)OCc2cncs2)C(C)C)cs1,EPG85-257DB,,80 µM
O=C1NC(c2ccccc2OCc2ccccc2)Nc2c1c(=O)n(O)c1ncccc21,HeLa,,<100 µM
N#Cc1nc2c(-c3nc4ccccc4[nH]3)c(N)n(CCc3ccccc3Cl)c2nc1C#N,L6 rat skeletal myoblasts,resazurin / fluorescence,143 µM
O=c1cc(Nc2ccc(-c3ccccc3)cc2)c2cccnc2n1O,HOS,ATP / luminescence,1.54 µM
C=C1CC2C[C@@H](OC(=O)c3ccccc3)[C@H]3[C@](C)(C(=O)O)CCC[C@]3(C)C23CCC1C3,HELA229,,0.2 µg/mL
O=C1N(CCN(CCOc2ccc(-c3ccc(Cl)cc3)cc2)Cc2ccc(Cl)cc2)CCN1c1ccncc1,RD,,>25 µM
Nc1nc(=S)n([C@@H]2O[C@H](CO)[C@@H](O)[C@@H]2O)cc1Cl,RPMI8226,,>341 µM
Nc1nc2c(ncn2CCC(CO)CO)c(=O)[nH]1,CBMC,,>200 µg/mL
OCCCNc1nc(NCCCCNc2ccnc3cc(Cl)ccc23)nc(N2CCCCC2)n1,LLC-Pk11,,27.4 µM
O=c1ccn(-c2ccc(F)cc2)c2ccccc12,HPB-ALL,luminescence,36.7 µM
Nc1ccn(C[C@@H](CO)OCP(=O)(O)O)c(=O)n1,CBMC,,63.88 µg/mL
CCN(CC)C(=S)N=Nc1c(O)[nH]c2ccccc12,hRD,,>25 µM
O=c1[nH]c(=O)n([C@@H]2O[C@H](CO)[C@@H](O)[C@@H]2O)cc1/C=C/Br,COS 1,,422 µg/mL
COc1cc(O)cc(C/C=C(\C)CCC=C(C)C)c1O,L6 rat skeletal myoblasts,resazurin,2.1 µM
COc1ccc(Cn2c(N)c(-c3nc4ccccc4[nH]3)c3nc(C#N)c(C#N)nc32)cc1O,L6 rat skeletal myoblasts,resazurin / fluorescence,187 µM
Cc1ccccc1NC(=S)N=Nc1c(O)[nH]c2ccccc12,hRD,,>25 µM
Nc1nc(=S)n([C@H]2C[C@H](O)[C@@H](CO)O2)cc1Cl,RPMI8226,,334 µM
COc1ccc(CN2CC[C@@H](N3CC(=O)N4[C@H](c5ccc6c(c5)OCO6)c5[nH]c6ccccc6c5C[C@@H]4C3=O)C2)cc1,MRC-5 SV2 cells,resazurin,8 µM
Nc1nc(=S)n([C@@H]2O[C@H](CO)[C@@H](O)[C@@H]2O)cc1Br,RPMI8226,,>296 µM
CC[C@@H](CCC[C@@H](CO)N(CC(C)C)S(=O)(=O)c1ccc(N)cc1)NC(=O)[C@@H](NC(=O)OC)C(c1ccccc1)c1ccccc1,T lymphoid cells,microscopy,>10 µM
Nc1nc2c(ncn2COC(CO)CO)c(=O)[nH]1,CBMC,,>200 µg/mL
N#Cc1nc2c(-c3nc4ccccc4[nH]3)c(N)n(CCc3cnc[nH]3)c2nc1C#N,L6 rat skeletal myoblasts,resazurin / fluorescence,4 µM
C[C@H](CCC(=O)NCCCCN(CCCNC(=O)CC[C@@H](C)[C@H]1CC[C@H]2[C@@H]3[C@H](OS(=O)(=O)O)C[C@@H]4C[C@H](OS(=O)(=O)O)CC[C@]4(C)[C@H]3C[C@H](OS(=O)(=O)O)[C@]12C)C(=O)CC[C@@H](C)[C@H]1CC[C@H]2[C@@H]3[C@H](OS(=O)(=O)O)C[C@@H]4C[C@H](OS(=O)(=O)O)CC[C@]4(C)[C@H]3C[C@H](OS(=O)(=O)O)[C@]12C)[C@H]1CC[C@H]2[C@@H]3[C@H](OS(=O)(=O)O)C[C@@H]4C[C@H](OS(=O)(=O)O)CC[C@]4(C)[C@H]3C[C@H](OS(=O)(=O)O)[C@]12C,CaSki,MTS,>1000 µg/mL
COC(=O)Oc1ccc(C[C@@H](C)[C@@H](C)Cc2ccc(OC(=O)OC)c(OC(=O)OC)c2)cc1OC(=O)OC,COS,,34.75 µM
COC(=O)N[C@H](C(=O)N[C@H](CCC[C@@H](CO)N(C(C)C)S(=O)(=O)c1ccc(N)cc1)C(C)C)C(c1ccccc1)c1ccccc1,T lymphoid cells,microscopy,>10 µM
Oc1[nH]c2ccccc2c1N=NC(=S)Nc1ccccc1Cl,hRD,,>25 µM
O=c1[nH]c(=S)n([C@H]2C[C@H](O)[C@@H](CO)O2)cc1Cl,RPMI8226,,297 µM
COC1=CCC(C2C3(CO)C4N(Cc5ccc(OC)cc5)C5C6(CO)C(c7ccc(OC)cc7)C4(CO)C3N(Cc3ccc(OC)cc3)C6C25CO)C=C1,EPG85-257P,,80 µM
Cc1cccc(NC(=S)N=Nc2c(O)[nH]c3ccccc23)c1,hRD,,>25 µM
COC(=O)N[C@H](C(=O)N[C@@H](C)CCC[C@@H](CO)N(CCC(C)C)S(=O)(=O)c1ccc(CO)cc1)C(c1ccccc1)c1ccccc1,T lymphoid cells,microscopy,>10 µM
C/C(=N\NC(=O)c1ccc([N+](=O)[O-])cc1)c1cccc(/C(C)=N/NC(=O)c2ccc([N+](=O)[O-])cc2)n1,HCT116,MTT,>100 µM
C[C@H](Cc1ccc(OCCN2CCCC2)c(OCCN2CCCC2)c1)[C@@H](C)Cc1ccc(OCCN2CCCC2)c(OCCN2CCCC2)c1,COS,,27.32 µM
COC(=O)N[C@H](C(=O)N[C@H](CCC[C@@H](CO)N(CCC(C)C)S(=O)(=O)c1ccc(N)cc1)C1CC1)C(c1ccc(F)cc1)c1ccc(F)cc1,T lymphoid cells,microscopy,>10 µM
Nc1ncnc2c1ncn2C1C[C@H]2C[C@@H]1c1ccsc12,Huh,,14 µM
Cn1cc(C(=O)O)c(=O)c2cc(N)c(N3CCN(c4nccs4)CC3)cc21,C3H/3T3,,2.8 µg/mL
Oc1[nH]c2ccc(Cl)cc2c1N=NC(=S)Nc1ccccc1,hRD,,>25 µM
COC(=O)c1c(Nc2ccc(-c3ccc(N)cc3)cc2)c2cccnc2n(O)c1=O,HOS,ATP / luminescence,250 µM
Clc1ncnc2c1ncn2C1C[C@H]2C[C@@H]1[C@H]1CSC[C@@H]21,Huh,,17 µM
CCN(CC)CCCn1c(N)c(-c2nc3ccccc3[nH]2)c2nc(C#N)c(C#N)nc21,L6 rat skeletal myoblasts,resazurin / fluorescence,1 µM
Nc1nc(=S)n([C@@H]2O[C@H](CO)[C@@H](O)[C@@H]2O)cc1I,RPMI8226,,96.2 µM
N#Cc1nc2c(-c3nc4ccccc4[nH]3)c(N)n(Cc3ccc4c(c3)OCO4)c2nc1C#N,L6 rat skeletal myoblasts,resazurin / fluorescence,53 µM
CC(C)(C)OC(=O)NCCN1CC[C@@H](N2CC(=O)N3[C@H](c4ccc5c(c4)OCO5)c4[nH]c5ccccc5c4C[C@@H]3C2=O)C1,MRC-5 SV2,resazurin,34 µM
O=c1oc(-c2ccc(OCc3ccccn3)cc2)cc(O)c1SCCc1ccccc1,CH-1,,13.6 µM
COc1ccc(Nc2nc(NCCCNc3ccnc4cc(Cl)ccc34)nc(N3CCOCC3)n2)cc1,LLC-Pk11,,27.8 µM
N#Cc1nc2c(-c3nc4ccccc4[nH]3)c(N)n(CCc3ccccc3)c2nc1C#N,L6 rat skeletal myoblasts,resazurin / fluorescence,55 µM
Cn1cc(C(=O)O)c(=O)c2cc(N)c(N3CCN(c4nc5ccccc5o4)CC3)cc21,C3H/3T3,,0.6 µg/mL
CC(C)N([C@H](CO)CCCC(C)(C)NC(=O)[C@@H](N)Cc1ccccc1Cl)S(=O)(=O)c1ccc(N)cc1,T lymphoid cells,microscopy,>10 µM
CC(C)N(Cc1cccc(OCCCCCC(=O)OC(=O)O)c1)C(=O)c1ccc(-c2cccc(NC=O)c2)cc1,RAJI,,>20 µM
COc1ccc(-c2c(O)c3cccnc3n(O)c2=O)cc1,HeLa,,<100 µM
C=C1C[C@@H](OC(=O)c2ccccc2)[C@H]2[C@](C)(C(=O)O)CCC[C@]2(C)C1CC/C(C)=C/CO,HELA229,,1.8 µg/mL
O=C(O)P(=O)(O)O,CBMC,,>200 µg/mL
CC(C)CCN([C@H](CO)CCC[C@@H](NC(=O)[C@@H](N)C(c1ccc(F)cc1)c1ccc(F)cc1)C1CC1)S(=O)(=O)c1ccc([C@@H](C)O)cc1,T lymphoid cells,microscopy,>10 µM
O=c1ccn(-c2ccc(F)cc2)c2cc(-c3ccccn3)ccc12,HPB-ALL,luminescence,>100 µM
O=c1cc(O)c2c(-c3cccc(Br)c3)ccnc2n1O,HeLa,,<100 µM

Repeating the first 9 entries:

compound | cells | read by | result
Nc1c(Cl)ncnc1NC1C[C@H]2C[C@@H]1c1ccsc12 | Huh |  | 101 µM
CC(C)(CCOc1ccc(-c2ccc(Cl)cc2)cc1)CCN1CCN(c2ccncc2)C1=O | RD |  | >25 µM
O=c1ccn(-c2ccc(F)cc2)c2cc(-n3ccnc3)c(F)cc12 | HPB-ALL | luminescence | 205.4 µM
CCOC(=O)CCCCCOc1cccc(CN(C(=O)c2ccc(-c3cccc(C(F)(F)F)c3)cc2)C(C)C)c1 | BJ |  | <7.5 µM
CN(C)C(=S)N=Nc1c(O)[nH]c2ccccc12 | hRD |  | >25 µM
Nc1cc2c(=O)c(C(=O)O)cn(C3CC3)c2cc1N1CCN(c2nc3ccccc3s2)CC1 | C3H/3T3 |  | 0.12 µg/mL
CCOC(=O)CCCCCOc1cccc(CN(C(=O)c2ccc(-c3ccc4c(c3)OCCO4)cc2)C(C)C)c1 | BJ |  | >20 µM
Oc1[nH]c2ccc(F)cc2c1N=NC(=S)Nc1ccccc1 | hRD |  | >25 µM
CCCCN1CC[C@@H](N2CC(=O)N3[C@H](c4ccc5c(c4)OCO5)c4[nH]c5ccccc5c4C[C@@H]3C2=O)C1 | MRC-5 SV2 | resazurin | 8 µM

Lines come from different laboratories, so protocols vary. CCn is the concentration with n% toxicity to the cells.